What was measured:
[1] = target: SARS-CoV-2 RBD (WT) displayed on the surface of yeast (SARS-CoV-2) (UniProt P0DTC2); assay: FACS
[2] = target: SARS-CoV RBD displayed on the surface of yeast (SARS-CoV) (UniProt P59594); assay: FACS

Row | Substance | Kd [1] | Kd [2]
1 | LY-CoV555 | 1.49 nM | –
2 | S309 | – | 3.22 nM

Reference: article PMC7963221
